Values from PubChem BioAssay AID1259414 (Drosophila RNAi Screening Center, 2018).

Test: 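Genome-wide screen for host control of endosymbiont load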 (primary screen)
System: Drosophila JW18 cells infected with Wolbachia
Reagent: long dsRNA against Drosophila genes, 0.25 µg dsRNA per well of a 384-well plate
Duration: 5 days
Treatment: cells persistently infected with Wolbachia before knock-down; no added drug
Measurement: 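Imaged fluorescence in situ signal for Wolbachia 23S rRNA per DAPI-counted host cell, given as a robust z-score within each plate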
Scale: Wolbachia per cell robust z: higher = more Wolbachia per host cell than the plate typical
Hit rule: 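Active if absolute robust z reaches 1.5 in two or more of three replicates, leaving out multi- or no-target dsRNAs, genes unexpressed in JW18 and A1 wells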
In all, the deposit lists about 24,000 reagents; this is a random part of those that have a named target and a result. Over the whole deposit, about 1,210 (5%) got an active call. 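Inactive calls also include excluded dsRNAs with several or no targets, genes unexpressed in JW18, and well A1, regardless of score.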 Names joined by + are all predicted targets of the reagent.

nonC (GeneID 31625) [DRSC18366]
- Wolbachia per cell robust z, rep 1: -0.779
- Wolbachia per cell robust z, rep 2: 0.0177
- Wolbachia per cell robust z, rep 3: -0.365
- Call: inactive

nonC (GeneID 31625) [DRSC18367]
- Wolbachia per cell robust z, rep 1: 0.524
- Wolbachia per cell robust z, rep 2: -0.416
- Wolbachia per cell robust z, rep 3: -0.718
- Call: inactive

CG30350 (GeneID 246556) [DRSC07690]
- Wolbachia per cell robust z, rep 1: 0.786
- Wolbachia per cell robust z, rep 2: -0.0116
- Wolbachia per cell robust z, rep 3: 0.296
- Call: inactive

Ugt35C1 (GeneID 53507) [DRSC16080]
- Wolbachia per cell robust z, rep 1: -1.54
- Wolbachia per cell robust z, rep 2: 1.11
- Wolbachia per cell robust z, rep 3: -0.214
- Call: inactive

Ugt35C1 (GeneID 53507) [DRSC28306]
- Wolbachia per cell robust z, rep 1: 0.653
- Wolbachia per cell robust z, rep 2: 0.449
- Wolbachia per cell robust z, rep 3: -0.0992
- Call: inactive

CG14154 (GeneID 39207) [DRSC10156]
- Wolbachia per cell robust z, rep 1: -0.174
- Wolbachia per cell robust z, rep 2: 0.998
- Wolbachia per cell robust z, rep 3: 1.55
- Call: inactive

lncRNA:CR33987 (GeneID 3885608) [DRSC26079]
- Wolbachia per cell robust z, rep 1: -2.22
- Wolbachia per cell robust z, rep 2: -0.658
- Wolbachia per cell robust z, rep 3: 0.215
- Call: inactive

Lrt (GeneID 37342) [DRSC06045]
- Wolbachia per cell robust z, rep 1: -0.604
- Wolbachia per cell robust z, rep 2: -3.92
- Wolbachia per cell robust z, rep 3: 0.2
- Call: inactive

Lrt (GeneID 37342) [DRSC27086]
- Wolbachia per cell robust z, rep 1: 0.633
- Wolbachia per cell robust z, rep 2: 1.02
- Wolbachia per cell robust z, rep 3: 1.47
- Call: inactive

Mdr49 (GeneID 36428) [DRSC07466]
- Wolbachia per cell robust z, rep 1: -1.18
- Wolbachia per cell robust z, rep 2: -1.33
- Wolbachia per cell robust z, rep 3: 0.334
- Call: inactive

Mdr49 (GeneID 36428) [DRSC24065]
- Wolbachia per cell robust z, rep 1: -0.379
- Wolbachia per cell robust z, rep 2: 0.718
- Wolbachia per cell robust z, rep 3: -0.259
- Call: inactive

tey (GeneID 40146) [DRSC11042]
- Wolbachia per cell robust z, rep 1: 0.417
- Wolbachia per cell robust z, rep 2: -5.26
- Wolbachia per cell robust z, rep 3: 0.809
- Call: inactive

tey (GeneID 40146) [DRSC21709]
- Wolbachia per cell robust z, rep 1: -1.68
- Wolbachia per cell robust z, rep 2: -0.647
- Wolbachia per cell robust z, rep 3: -0.773
- Call: inactive

tey (GeneID 40146) [DRSC26114]
- Wolbachia per cell robust z, rep 1: -2.72
- Wolbachia per cell robust z, rep 2: -0.78
- Wolbachia per cell robust z, rep 3: -0.137
- Call: inactive

Argl + CG9515 [DRSC03243]
- Wolbachia per cell robust z, rep 1: 1
- Wolbachia per cell robust z, rep 2: 0.247
- Wolbachia per cell robust z, rep 3: -0.0517
- Call: inactive

Argl + CG9515 [DRSC03245]
- Wolbachia per cell robust z, rep 1: 1.53
- Wolbachia per cell robust z, rep 2: -0.444
- Wolbachia per cell robust z, rep 3: 0.798
- Call: inactive

CG13295 (GeneID 38692) [DRSC09969]
- Wolbachia per cell robust z, rep 1: -0.853
- Wolbachia per cell robust z, rep 2: -0.455
- Wolbachia per cell robust z, rep 3: -0.027
- Call: inactive

CG1486 (GeneID 33108) [DRSC20508]
- Wolbachia per cell robust z, rep 1: 0.41
- Wolbachia per cell robust z, rep 2: 1.98
- Wolbachia per cell robust z, rep 3: 0.885
- Call: inactive

CG1486 (GeneID 33108) [DRSC28958]
- Wolbachia per cell robust z, rep 1: 1.8
- Wolbachia per cell robust z, rep 2: 1.04
- Wolbachia per cell robust z, rep 3: -0.304
- Call: inactive

Cyp4s3 (GeneID 32444) [DRSC20241]
- Wolbachia per cell robust z, rep 1: -0.151
- Wolbachia per cell robust z, rep 2: 0.654
- Wolbachia per cell robust z, rep 3: -2.25
- Call: inactive

Cyp4s3 (GeneID 32444) [DRSC22340]
- Wolbachia per cell robust z, rep 1: -1.28
- Wolbachia per cell robust z, rep 2: 0.727
- Wolbachia per cell robust z, rep 3: 0.0597
- Call: inactive

Cyp4s3 (GeneID 32444) [DRSC24027]
- Wolbachia per cell robust z, rep 1: 0.969
- Wolbachia per cell robust z, rep 2: 0.398
- Wolbachia per cell robust z, rep 3: 0.301
- Call: inactive

Ufl1 (GeneID 40843) [DRSC12527]
- Wolbachia per cell robust z, rep 1: 0.0611
- Wolbachia per cell robust z, rep 2: 0.342
- Wolbachia per cell robust z, rep 3: 0.0788
- Call: inactive

CR16735 (GeneID 10178810) [DRSC15144]
- Wolbachia per cell robust z, rep 1: -2.82
- Wolbachia per cell robust z, rep 2: 0.713
- Wolbachia per cell robust z, rep 3: -5
- Call: inactive
